Assay results from patent US8962670B2, “Anti-cancer agents” (UWM Research Foundation, Inc., priority 2011, dated 2015).

What was measured:
Test in all cases: NCI 60 panel GI50
Format in all cases: cell-based, human
786-0 (Renal Cancer) = test system: 786-0 (Renal Cancer)
A498 (Renal Cancer) = test system: A498 (Renal Cancer)
[1] = test system: A549/ATCC (Non-Small Cell Lung Cancer)
ACHN (Renal Cancer) = test system: ACHN (Renal Cancer)
CAKI-1 (Renal Cancer) = test system: CAKI-1 (Renal Cancer)
CCRF-CEM (Leukemia) = test system: CCRF-CEM (Leukemia)
COLO 205 (Colon Cancer) = test system: COLO 205 (Colon Cancer)
DU-145 (Prostate Cancer) = test system: DU-145 (Prostate Cancer)
HCT-116 (Colon Cancer) = test system: HCT-116 (Colon Cancer)
HCT-15 (Colon Cancer) = test system: HCT-15 (Colon Cancer)
HL-60(TB) (Leukemia) = test system: HL-60(TB) (Leukemia)
[2] = test system: HOP-92 (Non-Small Cell Lung Cancer)
LOX IMVI (Melanoma) = test system: LOX IMVI (Melanoma)
M14 (Melanoma) = test system: M14 (Melanoma)
MCF7 (Breast Cancer) = test system: MCF7 (Breast Cancer)
[3] = test system: MDA-MB-468 (Breast Cancer)
MOLT-4 (Leukemia) = test system: MOLT-4 (Leukemia)
[4] = test system: NCI-H23 (Non-Small Cell Lung Cancer)
[5] = test system: NCI-H460 (Non-Small Cell Lung Cancer)
[6] = test system: NCI-H522 (Non-Small Cell Lung Cancer)
NCI/ADR-RES (Ovarian) = test system: NCI/ADR-RES (Ovarian)
PC-3 (Prostate Cancer) = test system: PC-3 (Prostate Cancer)
RPMI-8226 (Leukemia) = test system: RPMI-8226 (Leukemia)
RXF 393 (Renal Cancer) = test system: RXF 393 (Renal Cancer)
SF-268 (CNS Cancer) = test system: SF-268 (CNS Cancer)
SF-295 (CNS Cancer) = test system: SF-295 (CNS Cancer)
SF-539 (CNS Cancer) = test system: SF-539 (CNS Cancer)
SK-OV-3 (Ovarian) = test system: SK-OV-3 (Ovarian)
SNB-19 (CNS Cancer) = test system: SNB-19 (CNS Cancer)
SNB-75 (CNS Cancer) = test system: SNB-75 (CNS Cancer)
SR (Leukemia) = test system: SR (Leukemia)
SW-620 (Colon Cancer) = test system: SW-620 (Colon Cancer)
T-47D (Breast Cancer) = test system: T-47D (Breast Cancer)
U251 (CNS Cancer) = test system: U251 (CNS Cancer)
UACC-62 (Melanoma) = test system: UACC-62 (Melanoma)
UO-31 (Renal Cancer) = test system: UO-31 (Renal Cancer)

With `OB(O)c1ccc(N(CCCl)CCCl)cc1` the GI50 (786-0 (Renal Cancer)) was 4.04 µM, the GI50 (A498 (Renal Cancer)) was 3.43 µM and the GI50 [1] was 0.89 µM. The GI50 (ACHN (Renal Cancer)) was 1.75 µM, the GI50 (CAKI-1 (Renal Cancer)) was 1.44 µM and the GI50 (CCRF-CEM (Leukemia)) was 3.27 µM. It also gave a GI50 (COLO 205 (Colon Cancer)) of 7.26 µM, a GI50 (DU-145 (Prostate Cancer)) of 4.89 µM and a GI50 (HCT-116 (Colon Cancer)) of 9.37 µM. It also gave a GI50 (HCT-15 (Colon Cancer)) of 9.46 µM, a GI50 (HL-60(TB) (Leukemia)) of 2.88 µM and a GI50 [2] of 10.5 µM. The GI50 (LOX IMVI (Melanoma)) was 3.13 µM, the GI50 (M14 (Melanoma)) was 4.77 µM and the GI50 (MCF7 (Breast Cancer)) was 1.89 µM. The GI50 [3] was 0.51 µM, the GI50 (MOLT-4 (Leukemia)) was 2.9 µM and the GI50 [4] was 3.36 µM. The GI50 [5] was 0.23 µM, the GI50 [6] was 3.53 µM and the GI50 (NCI/ADR-RES (Ovarian)) was 2.69 µM. For the same compound, the GI50 (PC-3 (Prostate Cancer)) was 15.1 µM, the GI50 (RPMI-8226 (Leukemia)) was 8.59 µM and the GI50 (RXF 393 (Renal Cancer)) was 2.55 µM. It also gave a GI50 (SF-268 (CNS Cancer)) of 4.72 µM, a GI50 (SF-295 (CNS Cancer)) of 1.36 µM and a GI50 (SF-539 (CNS Cancer)) of 3.35 µM. The GI50 (SK-OV-3 (Ovarian)) was 3.81 µM, the GI50 (SNB-19 (CNS Cancer)) was 8 µM and the GI50 (SNB-75 (CNS Cancer)) was 3.21 µM. It also gave a GI50 (SR (Leukemia)) of 0.48 µM, a GI50 (SW-620 (Colon Cancer)) of 8.39 µM and a GI50 (T-47D (Breast Cancer)) of 6.29 µM. It also gave a GI50 (U251 (CNS Cancer)) of 3.49 µM, a GI50 (UACC-62 (Melanoma)) of 4.71 µM and a GI50 (UO-31 (Renal Cancer)) of 6.05 µM.
